Results of unrelated studies side by side (data: NIAID ChemDB).

Shared fields: toxicity to cultured cells; cell line: HepG2 cells; measure: CC50

Neighbouring rows are from separate reports.

smiles | read by | value
Clc1ccc2c(NCCNCc3cccnc3)ccnc2c1 | MTT | 95.9 µM
CCCCN1C(=O)c2ccccc2NC1c1ccc(OC)cc1 | luminescence | >30 µM
O=C(Oc1ccc(Cl)cc1C(=O)Nc1ccc(C(F)(F)F)cc1)c1cnccn1 | tetrazolium | 3.68 µM
O=C(Cc1cccs1)N/N=C/c1ccc(O)c(O)c1 | MTT | 1300 µM
Clc1ccc2c(NCCCNCc3ccccc3)ccnc2c1 | MTT | 2.906 µM
O=C1c2ccccc2NC(c2ccc(Br)cc2)N1c1ccco1 | luminescence | >20 µM
Clc1ccc2c(NCCCNCc3ccncc3)ccnc2c1 | MTT | 35.9 µM
O=C(Cc1cccs1)N/N=C/c1sccc1[N+](=O)[O-] | MTT | 458.8 µM
COc1ccncc1CNCCCNc1ccnc2cc(Cl)ccc12 | MTT | 2.906 µM
CCN(CC)CCN1C(=O)c2ccccc2NC1c1ccc(Cl)cc1 | luminescence | >20 µM
O=C(Oc1cc(Br)ccc1C(=O)Nc1ccc(C(F)(F)F)cc1)c1ccccc1 | tetrazolium | 2.34 µM
CCN(CC)CCN1C(=O)c2ccccc2NC1c1ccc(N(C)C)cc1 | luminescence | >30 µM
O=C(Nc1ccc(Cl)c(Cl)c1)c1ccc(Cl)cc1OS(=O)(=O)c1ccccc1 | tetrazolium | 1.7 µM
CCN(CC)CCN1C(=O)c2ccccc2NC1c1ccc(Cl)cc1Cl | luminescence | >30 µM
O=C(Nc1ccc(C(F)(F)F)cc1)c1ccc(Cl)cc1OS(=O)(=O)c1ccccc1 | tetrazolium | 2.8 µM

Repeating the first 2 entries:

smiles,read by,value
Clc1ccc2c(NCCNCc3cccnc3)ccnc2c1,MTT,95.9 µM
CCCCN1C(=O)c2ccccc2NC1c1ccc(OC)cc1,luminescence,>30 µM

CCn is the concentration with n% toxicity to the cells.